Data as given in PubChem BioAssay AID624099 (ICCB-Longwood, 2012)
Aim: 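Human genes that papillomavirus E2 requires to repress the HPV18 LCR promoter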 (primary screen). Cell system: human C33A cervical carcinoma cells (HPV-negative) stably expressing BPV1 E2 and an HPV18 LCR luciferase reporter. Reagents: siRNA pool against human genes, 40 nM. Timing: 72 h. Read-out: 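HPV18 LCR reporter light per well, converted to plate-wise z-scores that exclude control wells, and averaged over triplicate plates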. Reading the numbers: mean z-score and z-score: higher = stronger reporter signal, weaker E2 silencing. Active means: 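Mean z ≥ 2 together with z ≥ 2 in two or more of the three replicates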.
This is one part, drawn at random, of about 21,000 reagents tested. Of all reagents, 497 (2.4%) got an active call. 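Higher z means weaker E2 silencing; only reporter increases were scored, and knock-downs that hurt cell survival may mask genuine repressor factors.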

| Gene | mean z-score | z-score, replicate A | z-score, replicate B | z-score, replicate C | call |
| --- | --- | --- | --- | --- | --- |
| SPRYD4 | 0.26 | -0.02 | 0.8 | 0 | inactive |
| COMMD7 | -1.24 | -0.48 | -1.08 | -2.15 | inactive |
| CAMK1 | -0.06 | 0.5 | -0.21 | -0.46 | inactive |
| RPS28 | -1.52 | -1.6 | -1.72 | -1.23 | inactive |
| LINC02817 | -1.12 | -1.38 | -0.83 | -1.13 | inactive |
| DYNC1LI2 | 0.41 | 0.35 | 0.55 | 0.34 | inactive |
| ARL13B | -0.22 | -0.19 | -0.09 | -0.37 | inactive |
| SLC25A36 | 0.87 | 0.96 | 0.61 | 1.05 | inactive |
| FAM3C | -0.3 | -0.28 | -0.3 | -0.31 | inactive |
| OXTR | -0.75 | -0.9 | -0.48 | -0.87 | inactive |
| KSR1 | -0.31 | -0.4 | -0.13 | -0.41 | inactive |
| RYBP | 0.77 | 0.63 | 0.73 | 0.97 | inactive |
| LOC401072 (retired record) | 0.2 | -0.04 | 0.44 | 0.22 | inactive |
| RPL32P36 | -2.25 | -2.09 | -2.44 | -2.21 | inactive |
| UNC5CL | -0.8 | -0.86 | -0.74 | -0.68 | inactive |
| LOC346910 (retired record) | -1.41 | -1.45 | -1.56 | -1.21 | inactive |
| OR8I2 | -0.22 | 0.3 | -0.42 | -0.55 | inactive |
| TBX19 | 0.39 | 0.09 | 0.34 | 0.75 | inactive |
| ASXL3 | -0.61 | -0.51 | -0.64 | -0.68 | inactive |
| LINC00269 | 0.91 | 0.73 | 0.86 | 1.15 | inactive |
| STARD3NL | -0.24 | -0.42 | -0.2 | -0.1 | inactive |
| SLFN12 | 0.3 | 0.48 | 0.38 | 0.05 | inactive |
| CUL9 | 0.01 | 0.01 | 0.17 | -0.14 | inactive |
| KCTD1 | 0.22 | 0.12 | 0.11 | 0.41 | inactive |
| XIRP1 | -0.56 | -0.49 | -0.76 | -0.41 | inactive |
| OR5B2 | 0.44 | 0.07 | 0.81 | 0.43 | inactive |

Part of the list above, set out differently:
RPS28
- mean z-score: -1.52
- z-score, replicate A: -1.6
- z-score, replicate B: -1.72
- z-score, replicate C: -1.23
- call: inactive

LINC02817
- mean z-score: -1.12
- z-score, replicate A: -1.38
- z-score, replicate B: -0.83
- z-score, replicate C: -1.13
- call: inactive

DYNC1LI2
- mean z-score: 0.41
- z-score, replicate A: 0.35
- z-score, replicate B: 0.55
- z-score, replicate C: 0.34
- call: inactive

ARL13B
- mean z-score: -0.22
- z-score, replicate A: -0.19
- z-score, replicate B: -0.09
- z-score, replicate C: -0.37
- call: inactive

Further entries follow.
| Gene | mean z-score | z-score, replicate A | z-score, replicate B | z-score, replicate C | call |
| --- | --- | --- | --- | --- | --- |
| ZNF836 | 0.14 | 0.17 | 0.18 | 0.06 | inactive |
| LSM14B | 1.12 | 1.08 | 1.26 | 1.03 | inactive |
| LOC389295 (retired record) | -1.41 | -1.2 | -1.59 | -1.43 | inactive |
| NDP | -0.5 | -0.68 | -0.34 | -0.47 | inactive |
| FOXQ1 | -1.19 | -0.9 | -1.48 | -1.2 | inactive |
| TMED4 | -1.33 | -1.37 | -1.5 | -1.11 | inactive |
| PDZD8 | 0.68 | 0.36 | 0.76 | 0.92 | inactive |
| PRSS12 | 1.8 | 1.7 | 1.98 | 1.71 | inactive |
| NKIRAS1 | -0.69 | -0.76 | -0.51 | -0.8 | inactive |
| LOC728073 (retired record) | 0.58 | 0.5 | 0.47 | 0.77 | inactive |
| SCYL3 | -0.72 | -0.9 | -0.8 | -0.45 | inactive |
| ISG15 | 0.68 | 0.98 | 0.59 | 0.47 | inactive |
| TXNDC5 | -0.2 | -0.54 | -0.32 | 0.27 | inactive |
| OR13D1 | -0.81 | -1.21 | -0.56 | -0.67 | inactive |
| POFUT2 | -0.03 | 0.02 | -0.02 | -0.1 | inactive |
| CEPT1 | -1.48 | -1.48 | -1.55 | -1.42 | inactive |
| MPPE1 | -2.42 | -2.48 | -2.44 | -2.34 | inactive |
| SUN2 | 0.52 | 0.29 | 0.78 | 0.5 | inactive |
| LOC402637 (retired record) | -0.12 | -0.35 | 0.29 | -0.3 | inactive |
| LINC00466 | -0.24 | 0.28 | -0.94 | -0.08 | inactive |
| TAPBP | -0.4 | -0.36 | -0.31 | -0.53 | inactive |
| NUP214 | -0.05 | -0.05 | -0.31 | 0.22 | inactive |
| RCAN1 | 0.86 | 0.8 | 0.97 | 0.82 | inactive |
| NPC1L1 | -2.49 | -1.74 | -2.81 | -2.93 | inactive |
| KCNQ1 | -0.87 | -0.89 | -0.74 | -0.98 | inactive |
| LOC389183 (retired record) | -1.37 | -1.47 | -1.85 | -0.8 | inactive |
| MORF4L2 | -1.04 | -0.87 | -1.13 | -1.12 | inactive |
| JADE1 | -0.06 | 0.1 | 0.25 | -0.52 | inactive |
| ZBTB37 | 1.67 | 1.29 | 1.84 | 1.87 | inactive |
| LINC00523 | -0.45 | -0.69 | -0.56 | -0.1 | inactive |
| CD1B | 1.28 | 1.33 | 1.38 | 1.14 | inactive |
